How the values were obtained:
Format in all cases: cell-based
[1] = tested on: BRD4, CDK9, Cyclin T1/T2, AFF4; test: Western blot of transcription elongation proteins in J-Lat cells; conditions: PMA + compound, 24 hours
Tat and NF-κB protein = test: Western blot of Tat and NF-κB in J-Lat cells; conditions: PMA + compound, 24 hours
human PBMCs / T cells = test: T-cell phenotypes, activation markers and gene expression in PBMCs; conditions: 8 μM

Row | SMILES | expression of BRD4, CDK9, Cyclin T1/T2, AFF4 [1] | Tat protein expression (Tat and NF-κB protein) | expression of HIV entry receptors (CD4 and CCR5) (human PBMCs / T cells; 3 days) | expression of 17 genes associated with T-cell phenotypes and functions (human PBMCs / T cells; PHA-activated and resting PBMCs)
1 | O=C(Nc1ccc(C(F)(F)F)cc1)Nc1ccc(S(=O)(=O)N2CCCC2C(=O)Nc2ccccc2)cc1 (stereo in doubt) [ZL0580, (R)—N-Phenyl-1-((4-(3-(4-(trifluoromethyl)phenyl)ureido)phenyl)sulfonyl)pyrrolidine-2-carboxamide] | Neither ZL0580 (PMA+ZL0580) nor JQ1 (PMA+JQ1) treatment altered expression of these proteins | did not significantly (or slightly) reduce Tat protein | did not significantly alter the expression of HIV entry receptors (CD4 and CCR5) on CD4 T cells | did not significantly alter the expression of these genes in PBMCs
2 | Cc1sc2c(c1C)C(c1ccc(Cl)cc1)=N[C@@H](CC(=O)OC(C)(C)C)c1nnc(C)n1-2 [JQ1, reference compound] | Neither ZL0580 (PMA+ZL0580) nor JQ1 (PMA+JQ1) treatment altered expression of these proteins | – | – | –

Reference: patent US10975059B2, “Small molecule BRD4 modulators for HIV epigenetic regulation” (The Board of Regents of The University of Texas System, priority 2017, dated 2021)
